Results of unrelated studies side by side (data: NIAID ChemDB).

Common to all: growth or infection tests; organism: Candida albicans; read-out: MIC

An empty or dashed field is not shown.

| compound | strain | result |
|---|---|---|
| Cc1nn(-c2ccccc2)c2c1C(c1ccccc1Cl)c1c(nc(=S)[nH]c1N)O2 | MTCC 227 | 500 µg/mL |
| C[C@@H](n1cnc2cc(NN)ccc2c1=O)[C@](O)(Cn1cncn1)c1ccc(F)cc1F | 406 strains | 0.31 µg/mL |
| CCOc1cc2c(cc1F)n([O-])c(C)c(S(=O)(=O)c1ccccc1)[n+]2=O | Clinical isolate 15 | 15.6 µg/mL |
| CCCCC/C=C/C=C/C(O)C/C=C/C=C/C(=O)OC1C(O)C(c2c(O)cc(O)cc2CO)OC(CO)C1OC1OC(C(O)COC(=O)/C=C/C=C\CCC(O)CC)C(O)C1O | TIMM1768 | 0.2 µg/mL |
| Cc1ccc(C(Cc2ccc(Cl)cc2)n2ccnc2)s1 |  | >18 µM |
| Cc1cc(Br)c2ncn([C@H](C)[C@](O)(Cn3cncn3)c3ccc(F)cc3F)c(=O)c2c1 | 60 strains | 0.07 µg/mL |
| Cc1c(S(=O)(=O)c2ccccc2)[n+](=O)c2cc(Cl)ccc2n1[O-] | Clinical isolate 13 | 31.25 µg/mL |
| O=S(=O)(Nc1ccc2c(c1)Sc1ccccc1O2)c1ccc(-[n+]2c(-c3ccccc3)cc(-c3ccccc3)cc2-c2ccccc2)cc1 | C316 | 3 µg/mL |
| O=[n+]1c(Sc2ccccc2)c(CBr)n([O-])c2ccccc21 | Clinical isolate 3 | 62.5 µg/mL |
| O=C(Nc1nc2ccc(NC(=O)[C@@H]3CCC[C@H](NCc4ccc5ccccc5c4)C3)cc2s1)C1CCCC1 | TIMM 0171 | 0.78 µM |
| Cc1ccc(-c2n[nH]c(=O)n2-n2c(C)ccc2C)cc1 | ATCC16231 | >250 µg/mL |
| CN(C)S(=O)(=O)Nc1ccc2c(c1)Sc1ccccc1O2 | C316 | 10 µg/mL |
| COCCOCCOCCOCCOCCOCCNC(=O)[C@H]1[C@@H]2C[C@@H](O[C@@H]3O[C@H](C)[C@@H](O)[C@H](N)[C@@H]3O)/C=C/C=C/C=C/C=C/C=C/C=C/C=C/[C@H](C)[C@@H](O)[C@H](C)[C@H](C)OC(=O)C[C@H](O)C[C@H](O)[C@@H](O)CC[C@H](O)C[C@H](O)C[C@](O)(C[C@@H]1O)O2 | Isolate 92-824 | 3.03 µg/mL |
| O=S(=O)(Nc1ccc2c(c1)Sc1ccccc1O2)c1ccc(I)cc1 | C316 | 10 µg/mL |
| O=C(Nc1ccc(Cl)cc1)c1ncccc1S | ATCC 44859 | 125 µM |
| CCCCCOc1ccc(-c2ccc(-c3ccc(C(=O)N[C@H]4CCCNC(=O)[C@@H]5C[C@H](NC(=O)NC)CN5C(=O)[C@H]([C@@H](C)O)NC(=O)[C@H](CCc5ccc(O)cc5)NC(=O)[C@@H]5C[C@@H](O)CN5C(=O)[C@H]([C@@H](C)O)NC4=O)cc3)cc2)cc1 | ATCC 62376 | 0.2 µg/mL |
| CC(=O)N1CCN(c2ccc(OC[C@H]3CO[C@](Cn4ccnc4)(c4ccc(Cl)cc4Cl)O3)cc2)CC1 | C316 | 0.06 µg/mL |
| Cc1ccc(C(C)C)cc1O | M1 | 0.16 µg/mL |
| Nc1ccc(S(=O)(=O)Nc2ccc3c(c2)Sc2ccccc2O3)cc1 | C316 | 16 µg/mL |
| COc1ccc2c(=O)cc(-c3ccc(-c4nc5ccc(C(N)=NC(C)C)cc5[nH]4)cc3)oc2c1 | ATCC 10231 | 12.5 µg/mL |
| Cc1nn(-c2ccccc2)c2c1C(c1cccc(Cl)c1)c1c(nc(=S)[nH]c1N)O2 | MTCC 227 | 1000 µg/mL |
| O=[N+]([O-])c1ccc(CC(c2ccc(Cl)s2)n2ccnc2)cc1 |  | 75 µM |
| C[C@@H](n1cnc2cc(OCC(F)(F)C(F)F)ccc2c1=O)[C@](O)(Cn1cncn1)c1ccc(F)cc1F | 406 strains | ≤0.03 µg/mL |
| CN(CCCC#CC(C)(C)C)c1cccc2c1CCC(=O)N2 | Clinical isolate 8 | 31.25 µg/mL |
| Cc1ccc(C(Cc2ccc(N)cc2)n2ccnc2)s1 |  | 37.5 µM |
| O=C(Nc1ccc(C(F)(F)F)cc1)c1ccccc1O | ATCC 44859 | >125 µM |
| O[C@](Cn1cncn1)(Cn1cnc(/C=C/c2ccc(OCC(F)(F)C(F)F)cc2)n1)c1ccc(F)cc1F | Isolate O15-2 | 1 µg/mL |
| COc1ccc(C2c3c(nc(=O)[nH]c3N)Oc3c2c(C)nn3-c2ccccc2)cc1 | MTCC 227 | 250 µg/mL |
| O=C1c2ccccc2C(=O)N1n1c(Cc2ccc(Cl)cc2)n[nH]c1=O | ATCC16231 | >250 µg/mL |
| O=C(Nc1cccc(F)c1)c1ncccc1S | ATCC 44859 | >125 µM |
| CCCCCOc1ccc(-c2ccc(-c3ccc(C(=O)N[C@H]4CCCNC(=O)[C@@H]5C[C@H](N)CN5C(=O)C(C)(C)NC(=O)C(CCc5ccc(O)cc5)NC(=O)[C@@H]5C[C@@H](O)CN5C(=O)[C@H]([C@@H](C)O)NC4=O)cc3)cc2)cc1 | ATCC 62376 | 50 µg/mL |
| Cn1cccc1C(Cc1ccc(Cl)cc1)n1ccnc1 |  | >300 µM |
| Cc1c(O)cccc1C(=O)N[C@@H](CSc1ccccc1)[C@H](O)CN1C[C@H]2CCCC[C@H]2C[C@H]1C(=O)NC(C)(C)C | I159A | >64 µg/mL |
| Cc1nn(-c2ccccc2)c2c1C(c1ccc(Cl)cc1)c1c(nc(=S)[nH]c1N)O2 | MTCC 227 | 250 µg/mL |
| CNn1c(-c2ccccc2)nn(C)c1=O | ATCC16231 | >250 µg/mL |
| Cc1nn(-c2ccccc2)c2c1C(c1ccc(O)cc1)c1c(nc(=O)[nH]c1N)O2 | MTCC 227 | 150 µg/mL |
| C[C@@H](n1cnc2cc(Br)ccc2c1=O)[C@](O)(Cn1cncn1)c1ccc(F)cc1F | 76 strains | 0.15 µg/mL |
| CCCCCOc1ccc(-c2ccc(-c3ccc(C(=O)N[C@H]4CCCNC(=O)[C@@H]5C[C@H](NC(=O)c6ccccc6)CN5C(=O)[C@H]([C@@H](C)O)NC(=O)[C@H](CCc5ccc(O)cc5)NC(=O)[C@@H]5C[C@@H](O)CN5C(=O)[C@H]([C@@H](C)O)NC4=O)cc3)cc2)cc1 | ATCC 38247 | 25 µg/mL |
| CC(C)N=C(N)c1ccc(-c2cc(=O)c3cc(C(N)=NC(C)C)ccc3o2)cc1 | ATCC 10231 | >50 µg/mL |
| O=[N+]([O-])c1ccc(S(=O)(=O)Nc2ccc3c(c2)Sc2ccccc2O3)cc1 | C316 | 4 µg/mL |
| NC(=NC1CCCC1)c1ccc(-c2ccc(-c3ccc(C(N)=NC4CCCC4)cc3)o2)cc1 | Isolate CA2256 fluconazole-resistant | 25 µg/mL |
| CCCCCOc1ccc(-c2ccc(-c3ccc(C(=O)N[C@H]4CCCNC(=O)[C@@H]5C[C@H](NC(C)=O)CN5C(=O)[C@H]([C@@H](C)O)NC(=O)[C@H](CCc5ccc(O)cc5)NC(=O)[C@@H]5C[C@@H](O)CN5C(=O)[C@H]([C@@H](C)O)NC4=O)cc3)cc2)cc1 | ATCC 62376 | 0.2 µg/mL |
| Cc1ccc(C)n1-n1c(Cc2ccccc2)n[nH]c1=O | ATCC16231 | >250 µg/mL |
| CCCCCOc1ccc(-c2ccc(-c3ccc(C(=O)N[C@H]4CCCNC(=O)[C@@H]5C[C@H](NC(=O)CCC(=O)O)CN5C(=O)[C@H]([C@@H](C)O)NC(=O)[C@H](CCc5ccc(O)cc5)NC(=O)[C@@H]5C[C@@H](O)CN5C(=O)[C@H]([C@@H](C)O)NC4=O)cc3)cc2)cc1 | ATCC 38247 | 3.12 µg/mL |
| CCC/C=C/C=C/C=C/C(=O)OCC1O[C@@H](OC2C(CO)O[C@]3(OCc4cc(O)cc(O)c43)[C@H](O)[C@H]2OC(=O)/C=C/C=C/CC(O)/C=C/C=C/C=C/CCC)[C@H](O)[C@@H](O)[C@H]1O | IAM4888 | 0.2 µg/mL |
| COc1ccc(NC(=O)c2ncccc2O)cc1 | ATCC 44859 | 125 µM |
| O=c1cc(-c2ccccc2)oc2ccc(-c3nc4ccc(C5=NCCCN5)cc4[nH]3)cc12 | ATCC 10231 | 6.25 µg/mL |
| CCCCCCCOc1ccc(N2CCN(c3ccc(C(=O)N[C@H]4CCCNC(=O)[C@@H]5C[C@H](N)CN5C(=O)[C@H]([C@@H](C)O)NC(=O)[C@H](CCc5ccc(C)cc5)NC(=O)[C@@H]5CCCN5C(=O)[C@H]([C@@H](C)O)NC4=O)cc3)CC2)cc1 | ATCC 38247 | 6.25 µg/mL |
| CCOc1cc2c(cc1F)n([O-])c(C)c(Cl)[n+]2=O | Clinical isolate 8 | 15.6 µg/mL |
| COC(=O)c1c(C)oc2cc(C(=O)C(Br)Br)c(O)c(Br)c12 | ATCC 10231 | 100 µg/mL |
| N=C(N)c1ccc2nc(-c3ccc(-c4cc(=O)c5cc(-c6nc7ccc(C(=N)N)cc7[nH]6)ccc5o4)cc3)[nH]c2c1 | ATCC 10231 | >50 µg/mL |
| C[C@@H](n1cnc2c(Br)cc(Br)cc2c1=O)[C@](O)(Cn1cncn1)c1ccc(F)cc1F | 60 strains | 0.07 µg/mL |
| O=[N+]([O-])c1cccc(S(=O)(=O)Nc2ccc3c(c2)Sc2ccccc2O3)c1 | C316 | 5 µg/mL |
| Cc1ccc2c(c1)c1nnc(N3CC[N+](C)([O-])CC3)nc1n2C | 2381E | >125 µg/mL |
| Cc1nn(-c2ccccc2)c2c1C(c1ccc(F)cc1)C(C#N)=C(N)O2 | MTCC 227 | 200 µg/mL |
| Cc1cc(C)[n+](-c2ccc(S(=O)(=O)Nc3ccc4c(c3)Sc3ccccc3O4)cc2)c(C)c1 | C316 | 14 µg/mL |
| Cn1cccc1C(Cc1ccc(Cl)cc1Cl)n1ccnc1 |  | >300 µM |

Repeating the final 4 entries:

compound	strain	result
Cc1ccc2c(c1)c1nnc(N3CC[N+](C)([O-])CC3)nc1n2C	2381E	>125 µg/mL
Cc1nn(-c2ccccc2)c2c1C(c1ccc(F)cc1)C(C#N)=C(N)O2	MTCC 227	200 µg/mL
Cc1cc(C)[n+](-c2ccc(S(=O)(=O)Nc3ccc4c(c3)Sc3ccccc3O4)cc2)c(C)c1	C316	14 µg/mL
Cn1cccc1C(Cc1ccc(Cl)cc1Cl)n1ccnc1		>300 µM

Rows are shuffled and stem from different studies.